Experimental data: PubChem BioAssay AID624099 (ICCB-Longwood, 2012)

Aim: 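Knock-downs relieving repression by E2 of an HPV18 LCR luciferase reporter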 (primary screen)
System: human C33A cervical carcinoma cells (HPV-negative) stably expressing BPV1 E2 and an HPV18 LCR luciferase reporter
Reagents: siRNA pool against human genes, 40 nM
Timing: 72 h
Detection: 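Per-well luciferase luminescence, z-scored on each plate against the plate mean and SD with control wells left out, then averaged across three replicate plates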
Scale: mean z-score and z-score: higher = stronger reporter signal, weaker E2 silencing
Rule for the call: 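Mean z ≥ 2 together with z ≥ 2 in two or more of the three replicates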
The whole screen tested about 21,000 reagents; below is a random part of them. 497 of them (2.4%) count as active. 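Higher z means weaker E2 silencing; only reporter increases were scored, and knock-downs that hurt cell survival may mask genuine repressor factors.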

target | mean z-score | z-score, replicate A | z-score, replicate B | z-score, replicate C | outcome
LOC387632 (retired record) | -0.32 | -0.06 | -0.6 | -0.3 | inactive
KRTAP20-2 | 0.75 | 0.96 | 0.68 | 0.6 | inactive
PUS10 | 0.47 | 0.52 | 0.6 | 0.3 | inactive
ARSF | 0.27 | 0.18 | 0.47 | 0.17 | inactive
IPO4 | -1.04 | -1.39 | -1.55 | -0.19 | inactive
NOTCH1 | -0.6 | -0.53 | -0.83 | -0.43 | inactive
CD151 | 0.55 | 0.85 | 0.54 | 0.26 | inactive
NKX2-6 | -0.29 | -0.2 | -0.32 | -0.35 | inactive
C7orf33 | 0.71 | 1.02 | 0.7 | 0.41 | inactive
RS1 | 1.69 | 1.42 | 1.92 | 1.72 | inactive

Continued; the last 3 above are carried over.
target | mean z-score | z-score, replicate A | z-score, replicate B | z-score, replicate C | outcome
NKX2-6 | -0.29 | -0.2 | -0.32 | -0.35 | inactive
C7orf33 | 0.71 | 1.02 | 0.7 | 0.41 | inactive
RS1 | 1.69 | 1.42 | 1.92 | 1.72 | inactive
LOC220998 (retired record) | -0.29 | -0.21 | -0.46 | -0.21 | inactive
BSPRY | -1.06 | -1.28 | -1.06 | -0.84 | inactive
LOC388140 (retired record) | -0.93 | -0.97 | -1.13 | -0.69 | inactive
TRPA1 | -0.13 | 0.02 | -0.04 | -0.36 | inactive
RER1 | 0.77 | 0.45 | 1.09 | 0.78 | inactive
LOC401357 | 0.77 | 0.57 | 0.89 | 0.84 | inactive
ADAM3A | 1.67 | 1.63 | 1.48 | 1.89 | inactive
MAGED4B | -1.06 | -0.68 | -0.56 | -1.93 | inactive
SLC35A2 | 0.01 | 0.02 | -0.03 | 0.05 | inactive
UBE2U | -0.16 | -0.58 | 0.72 | -0.62 | inactive
APLP2 | -0.61 | -0.25 | -0.62 | -0.95 | inactive
H2BC9 | -1.44 | -1.32 | -1.81 | -1.19 | inactive
LCN2 | 0.23 | 0.19 | 0.2 | 0.28 | inactive
